In patent publication US7338809B2, “Method for assaying whole blood” (Mitsubishi Kagaku Iatron, Inc., priority 2001, dated 2008):

System: whole blood
Experiment: Example 4: visual inspection of reaction system, types and concentrations of detergents (hemolysis, adhesion, aggregation)
Settings: heparin whole blood stored overnight at 4° C.
[1] = detergent 0.01% upon mixing of whole blood
[2] = detergent 0.1% upon mixing of whole blood
[3] = detergent 0.5% upon mixing of whole blood
[4] = detergent 1% upon mixing of whole blood
[5] = detergent 10% upon mixing of whole blood

O=S(=O)([O-])CCC[n+]1ccccc1
Adhesion of magnetic particles to reaction vessel wall [1]: Present | Aggregation of magnetic particles [1]: Present | Adhesion of magnetic particles to reaction vessel wall [2]: Present | Aggregation of magnetic particles [2]: Present | Adhesion of magnetic particles to reaction vessel wall [3]: Absent | Aggregation of magnetic particles [3]: Present | Adhesion of magnetic particles to reaction vessel wall [4]: Absent | Aggregation of magnetic particles [4]: Absent | Adhesion of magnetic particles to reaction vessel wall [5]: Absent | Aggregation of magnetic particles [5]: Absent
